Data taken from paper PMC6193675.

Target: yeast-displayed unmodified gp120 from HIV strain YU2, fused at its C-terminal to Aga2p (mutated furin cleavage site) (HIV-1 strain YU2)
Experiment: flow cytometry on cells; competition: increasing soluble CD4 against VRC01 (1, 3 or 30 nM) on yeast-displayed gp120; secondary antibody at 4°C, cells on ice; Ki from the three antibody concentrations

## purified soluble form of CD4 (from UniProt P01730 26-396) (receptor)
  Ki: 0.58 nM
  logIC50 at 1 nM VRC01: -0.45
  logIC50 at 3 nM VRC01: 0.13
  logIC50 at 30 nM VRC01: 0.72
